Results deposited as PubChem BioAssay AID624099 (ICCB-Longwood, 2012).
The whole screen tested about 21,000 reagents; this is an unselected part. 497 of them (2.4%) were called active. 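Higher z means weaker E2 silencing; only reporter increases were scored, and knock-downs that hurt cell survival may mask genuine repressor factors.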 Unmarked entries are inactive.

- Aim: 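Knock-downs relieving repression by E2 of an HPV18 LCR luciferase reporter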 (primary screen)
- Cell system: human C33A cervical carcinoma cells (HPV-negative) stably expressing BPV1 E2 and an HPV18 LCR luciferase reporter
- Knock-down reagent: siRNA pool against human genes, 40 nM
- Time to read-out: 72 h
- Measured: 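HPV18 LCR reporter light per well, converted to plate-wise z-scores that exclude control wells, and averaged over triplicate plates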
- Reading the numbers: mean z-score and z-score: higher = stronger reporter signal, weaker E2 silencing
- Rule for the call: 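Hit if mean z-score reaches 2 and two or more of three replicate z-scores also reach 2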

| Gene | mean z-score | z-score, replicate A | z-score, replicate B | z-score, replicate C |
| --- | --- | --- | --- | --- |
| PRKAR2B | -0.99 | -1 | -1.03 | -0.95 |
| ZNF181 | -0.42 | -0.37 | -0.24 | -0.65 |
| SDC2 | 0.45 | -0.04 | 0.56 | 0.82 |
| ADGRF3 | -1.04 | -0.94 | -1 | -1.19 |
| SLC52A3 | 2.15 (active) | 1.86 | 2.21 | 2.36 |
| FOXE3 | 0 | 0.07 | -0.09 | 0.01 |
| KLC3 | -0.56 | -0.38 | -0.81 | -0.48 |
| GK2 | 1.53 | 1.74 | 1.37 | 1.49 |
| CASC22 | 0.81 | 0.67 | 0.55 | 1.22 |
| PHGDH | -0.72 | -0.88 | -0.69 | -0.6 |
| SERPINI1 | 0.61 | 0.64 | 0.4 | 0.8 |
| PIP5K1A | -0.15 | -0.27 | -0.3 | 0.12 |
| IZUMO4 | -0.09 | -0.79 | 0.19 | 0.32 |
| NEU4 | 0.73 | 0.52 | 0.6 | 1.07 |
| LINC00475 | 1.22 | 1.55 | 0.97 | 1.14 |
| LRRC25 | -1.93 | -2.04 | -1.68 | -2.07 |
| QTRT2 | 0.16 | -0.23 | 0.22 | 0.5 |
| CDKL5 | -1.66 | -1.37 | -1.47 | -2.14 |
| CYP24A1 | -0.21 | -0.11 | -0.26 | -0.25 |
| UQCRC2 | 0.32 | 0.56 | 0.54 | -0.13 |
| ZNF672 | -0.4 | -0.28 | -0.61 | -0.3 |
| LRRIQ4 | -0.12 | -0.8 | 0.4 | 0.03 |
| STX11 | -1.24 | -1.18 | -1.35 | -1.17 |
| HLA-A | 0.32 | 0.42 | 0.34 | 0.21 |
| IST1 | 0.78 | 0.74 | 0.66 | 0.94 |
| CATSPERG | -1.38 | -1.26 | -1.51 | -1.38 |
| SAPCD2 | -1.09 | -1.3 | -1.1 | -0.87 |
| OR7G1 | 0.57 | 0.71 | 0.62 | 0.39 |
| GRM8 | -1.87 | -1.69 | -2.23 | -1.69 |
| HOXA13 | 1.03 | 0.81 | 1.23 | 1.05 |
| MTLN | 0.41 | 0.38 | 0.3 | 0.55 |
| FAS | 1 | 0.91 | 0.99 | 1.1 |
| THUMPD1 | 0.5 | 0.43 | 0.63 | 0.45 |
| SIRT7 | 0.5 | 1 | 0.13 | 0.35 |
| HELT | 0.4 | 0.41 | 0.59 | 0.19 |
| CEACAM16 | -0.91 | -0.77 | -1.02 | -0.94 |
| NEU3 | -0.14 | -0.12 | -0.32 | 0.03 |
| PRELID1P6 | 1.07 | 0.84 | 1.25 | 1.11 |
| VPS37B | 0.42 | 0.16 | 0.4 | 0.69 |
| BMP4 | -0.36 | -0.51 | -0.21 | -0.37 |
| USP9X | 0.04 | 0.03 | 0.15 | -0.07 |
| ADM | -1.5 | -1.45 | -1.63 | -1.41 |
| PPM1J | 0.04 | 0.01 | -0.04 | 0.16 |
| SPRYD3 | 0.75 | 0.55 | 0.65 | 1.05 |
| KLK14 | 1.79 | 2.02 | 1.76 | 1.6 |
| SOX13 | -0.84 | -1.05 | -0.7 | -0.77 |
| ZNF662 | 0.86 | 0.82 | 1.03 | 0.73 |
| IFIT3 | -0.14 | -0.6 | -0.04 | 0.23 |
| MIDN | -1.19 | -1.41 | -0.79 | -1.38 |
| LINC01089 | -1.91 | -1.91 | -1.86 | -1.96 |
| EHHADH-AS1 | -0.74 | -0.89 | -0.63 | -0.69 |
| ISG15 | 0.68 | 0.98 | 0.59 | 0.47 |
| LOC145660 (retired record) | 0.43 | 0.11 | 0.74 | 0.45 |
| NHLH1 | 1.59 | 1.37 | 1.32 | 2.06 |
| ABHD6 | 0.86 | 1.21 | 0.65 | 0.74 |
| FMO9P | -0.37 | -0.62 | -0.6 | 0.1 |
| IDO2 | -0.7 | -0.74 | -0.45 | -0.92 |
| PTGS2 | 0.01 | -0.11 | 0.16 | -0.01 |
| CALM2 | 0.17 | 0.01 | 0.32 | 0.19 |
| LINC01366 | 0.12 | -0.05 | 0.3 | 0.1 |
| EPS15L1 | -0.6 | -0.66 | -0.54 | -0.58 |
| EEF1AKMT3 | -0.48 | -0.39 | -0.54 | -0.52 |
| DDI1 | -0.16 | -0.38 | 0.36 | -0.47 |
| LSM1 | 1.16 | 0.69 | 1.64 | 1.16 |
| CERT1 | -0.39 | -0.19 | -0.39 | -0.59 |
| ANP32E | -0.26 | 0 | -0.06 | -0.72 |
| CCIN | -0.07 | -0.01 | -0.36 | 0.16 |
| MLNR | 1.01 | 0.92 | 1.23 | 0.87 |
| RPE65 | 0.05 | 0.08 | -0.13 | 0.19 |
| ADGRG6 | 0.35 | 0.58 | 0.35 | 0.12 |
| PROX2 | 0.3 | 0.01 | 0.61 | 0.27 |
| GOLGA8A | 0.43 | 0.58 | 0.5 | 0.23 |
| STOML3 | 0.2 | 0.15 | 0.31 | 0.14 |
